{
  "source": "patent US20240209034A1",
  "about": "(priority 2021, published 2024)",
  "tested_on": "A375P cells",
  "data": [
    {"smiles": "CC(C)C[C@@H]1NC(=O)[C@H](CC(=O)O)NC(=O)CNC(=O)[C@H](CCCNC(=N)N)NC(=O)[C@H](CC(C)C)NC(=O)[C@H](CC(N)=O)NC(=O)[C@@H]2C[C@@H](O)CN2C(=O)[C@H](C(C)C)NC(=O)[C@@H](NC(=O)[C@H](CC(N)=O)NC(=O)CCCC[C@@H]2SC[C@@H]3NC(=O)N[C@@H]32)CSc2c(F)c(F)c(c(F)c2F)-c2c(F)c(F)c(c(F)c2F)SC[C@@H](C(=O)N[C@H](CCCNC(=N)N)C(=O)N[C@H](C(=O)N[C@@H](CCCCN)C(=O)N[C@H](C)C(N)=O)[C@@H](C)O)NC(=O)[C@H](C(C)C)NC(=O)[C@H](CCCCN)NC(=O)[C@H](CCC(N)=O)NC(=O)[C@H](C)NC(=O)[C@H](CC(C)C)NC(=O)[C@H](C(C)C)NC(=O)[C@H](CCC(N)=O)NC1=O", "note": "[C2C18 Ph RDTKAD DFBP]", "values": [
      {"measurement": "non-specific binding relative to the original A20FMDV2 peptide", "result": "60±16", "unit": "%"}
    ]}
  ]
}
